Test results from patent publication US12036229B2, “Use of phosphorylated heptose compounds” (NATIONAL RESEARCH COUNCIL OF CANADA, priority 2017, dated 2024).

Tests used:
[1] = tested on: latent recombinant HIV encoding dsRed fluorescent protein in Jurkat CD4+ T cell line; experiment: Stimulation of HIV proviral expression in Jurkat CD4+ T cells (dsRed); conditions: 150 or 300 μM, 24 hours; FIG. 10
IgG titers to TbpB = experiment: Adjuvant test: immunization with TbpB, IgG titers to TbpB by ELISA; conditions: 200 μg with 25 μg TbpB intramuscularly, D0, D21, D28; serum D14, D28, D35; FIG. 15a
[2] = tested on: N. meningitidis strain expressing the homologous TbpB; experiment: N. meningitidis challenge of immunized mice (sepsis model); conditions: adjuvant with 25 μg TbpB

D-glycero-D-manno-heptopyranose 1β-phosphate
HIV proviral expression (dsRed fluorescence, flow cytometry) [1]: can drive HIV out of latency in vitro | IgG titers to TbpB (IgG titers to TbpB): titers that were significantly higher than administration of TbpB alone and greater than observed with alum as the adjuvant | clinical scores ([2]; challenge D36, 12 h post challenge, FIG. 15c): lower | bacterial burden (CFU in blood) ([2]; challenge D36 with 5×10^7 N. meningitidis, blood at 1 h, FIG. 15b): reduced
